Test results published in publication PMC9820559 (International Journal of Molecular Sciences, 2022).

Assays:
[1] = general procedure: Fmoc solid-phase peptide synthesis; 2-Chlorotritylchloride resin (theoretical loading of 1.6 mmol/g; loading around 0.65 mmol/g); PyBOP/DIPEA; conditions: for conjugation yield: conjugation step; for isolated mass / isolated yield: whole synthesis
[2] = peptide made by a vendor (peptide synthesis; 2-Chlorotritylchloride resin (theoretical loading of 1.6 mmol/g; loading around 0.65 mmol/g); PyBOP/DIPEA); conditions: whole synthesis, HPLC / RP-UPLC-MS, scale of the general procedure 0.2 g resin
[3] = scale of the general procedure 0.2 g resin

PEPTIDE1{[FTU].D.S.D.N.D.L.S.L.E.D.F}$$$$V2.0
conjugation yield ([1]; on commercial P11 (3.11 µmol)): 68%

PEPTIDE1{D.[pSer].D.N.D.L.[pSer].L.E.D.F}$$$$V2.0
final HPLC purity [2]: >95%

PEPTIDE1{D.E.D.N.D.L.E.L.E.D.F}$$$$V2.0
isolated mass ([1]; scale 150 mg of 2-CTC resin): 28.0 mg
isolated yield ([1]; scale 150 mg of 2-CTC resin): 20%

PEPTIDE1{[BCN].D.N.D.L.E.L.E.D.F}$$$$V2.0
isolated yield ([1]; on P9E on resin, scale 8.71 µmol): 10%
isolated mass ([1]; scale 8.71 µmol): 1.17 mg

PEPTIDE1{[BCN].E.D.N.D.L.E.L.E.D.F}$$$$V2.0
isolated yield ([1]; on P10EE on resin, scale 8.71 µmol): 8%
isolated mass ([1]; scale 8.71 µmol): 1.00 mg

PEPTIDE1{[BCN].D.L.E.L.E.D.F}$$$$V2.0
isolated yield ([1]; on P7E on resin, scale 8.71 µmol): 22%
isolated mass ([1]; scale 8.71 µmol): 2.22 mg

PEPTIDE1{[FTU].D.E.D.N.D.L.E.L.E.D.F}$$$$V2.0
conjugation yield ([1]; on P11EE (3.41 µmol)): 40%

PEPTIDE1{[FTU].D.S.D.N.D.L.E.L.E.D.F}$$$$V2.0
conjugation yield ([1]; on P11SE (3.43 µmol)): 15%

PEPTIDE1{[FTU].D.L.E.L.E.D.F}$$$$V2.0
conjugation yield ([1]; on P7E (5.03 µmol)): 50%

PEPTIDE1{[BCN].E.L.E.D.F}$$$$V2.0
isolated yield ([1]; on P5E on resin, scale 8.71 µmol): 32%
isolated mass ([1]; scale 8.71 µmol): 2.63 mg

PEPTIDE1{D.S.D.N.D.L.S.L.E.D.F}$$$$V2.0
final HPLC purity [2]: >95%

PEPTIDE1{E.L.E.D.F}$$$$V2.0
isolated mass [1]: 59.0 mg
isolated yield [1, 3]: 59%

PEPTIDE1{[FTU].E.L.E.D.F}$$$$V2.0
conjugation yield ([1]; on P5E (6.53 µmol)): 53%

PEPTIDE1{[BCN].L.E.L.E.D.F}$$$$V2.0
isolated yield ([1]; on P6E on resin, scale 8.71 µmol): 18%
isolated mass ([1]; scale 8.71 µmol): 1.60 mg

PEPTIDE1{D.N.D.L.E.L.E.D.F}$$$$V2.0
isolated mass [1]: 27.0 mg
isolated yield [1, 3]: 17%

PEPTIDE1{[FTU].L.E.D.F}$$$$V2.0
conjugation yield ([1]; on P4 (7.85 µmol)): 62%

BCN-NDLELEDF-OH
isolated yield ([1]; on P8E on resin, scale 8.71 µmol): 18%
isolated mass ([1]; scale 8.71 µmol): 2.00 mg

PEPTIDE1{D.L.E.L.E.D.F}$$$$V2.0
isolated mass [1]: 43.0 mg
isolated yield [1, 3]: 33%

PEPTIDE1{[FTU].D.N.D.L.E.L.E.D.F}$$$$V2.0
conjugation yield ([1]; on P9E (4.09 µmol)): 22%

PEPTIDE1{[BCN].D.E.D.N.D.L.E.L.E.D.F}$$$$V2.0
isolated yield ([1]; on P11EE on resin, scale 8.71 µmol): 11%
isolated mass ([1]; scale 8.71 µmol): 1.01 mg

PEPTIDE1{[BCN].D.S.D.N.D.L.E.L.E.D.F}$$$$V2.0
isolated yield ([1]; on P11SE on resin, scale 4.35 µmol): 16%
isolated mass ([1]; scale 4.35 µmol): 1.12 mg

Some peptides are written in HELM: one residue between dots, names in brackets for other building blocks, links after the first $.
